Reference: US20190062383A1, “Kv1.3 Antagonists and Methods of Use” (Janssen / Centocor, published 2019)

Target: human Kv1.3 (human, UniProt P22001 1-575)
Test: cell-based or functional assay

B1: KV1N2 (OsK1-Fc fusion) (Fc fusion)
chain: GVIINVKCKISRQCLEPCKKAGMRFGKCMNGKCHCTPKGSGGGGSGGGGSGGGGSGGGGS
- Kv1.3 IC50, whole-cell patch clamp: 0.3 nM
